Measurements taken from US6313094A, “β-amino-α-hydroxycarboxylic acid derivatives and HIV protease inhibitors” (priority 1990, dated 2001).

Molecular target: T1, chemically synthesized HIV protease (Human immunodeficiency virus type 1 group M subtype B, UniProt P12497, C555A/C583A)
T1 construct: The HIV protease was chemically synthesized; made in house; host or cells: chemical (peptide) synthesis, no expression host
Assay type: biochemical

Question: Which IC50 does the source give for “Benzyloxycarbonyl-Asn-(2S,3S)-AHPBA-Pro-Ile-NH--CH2 --C6 H11 [Example 32]” here?
Answer: The IC50 was 60 nM.

Question: What about the Ki of the same substance?
Answer: Its Ki is 10 nM.
